Measured values from several laboratories, pooled; numbers as filed in NIAID ChemDB.

Shared fields: enzyme or target tests; agent: Pneumocystis carinii

Inhibition is in % at the dose shown (toxicity tests: loss of growth or viability). Neighbouring rows are from separate reports. ICn: concentration for n% inhibition. a–b is a range or a potency band. An empty or dashed field is not shown.

SMILES,protein,method,endpoint,tested at,result
N=C(N)c1ccc2nc(/C=C/c3nc4ccc(C(=N)N)cc4[nH]3)[nH]c2c1,Topoisomerase I,,IC50,,3.1 µM
Cc1cc(NS(=O)(=O)c2ccc(N)cc2)nc(C)n1,DHPS,,IC50,,0.37 µM
COc1cc(Cc2cnc(N)nc2N)cc2c1OC(C)(C)O2,DHFR,,IC50,,13.9 µM
O=C1C(=O)c2ccccc2C(O)=C1C1CCC(c2ccc(Cl)cc2)CC1,Dihydroorotate dehydrogenase,,inhibition,100 µM,76.3%
COc1ccc(Cc2cnc(N)nc2N)cc1OCCNS(=O)(=O)c1ccc(N)cc1,DHFR,,IC50,,0.57 µM
CCc1nc(N)nc(N)c1-c1ccc(N2CCCCC2)cc1,DHFR,,IC50,,12 µM
N=C(N)c1ccc2nc(CCCCc3nc4ccc(C(=N)N)cc4[nH]3)[nH]c2c1,Topoisomerase I,,IC50,,10–12 µM
COCCCCOc1ccc2c(-c3cnc(N)nc3N)cccc2c1,DHFR,,IC50,,80 µM
CC1(C)N=C(N)N=C(N)N1c1ccc(CCCCc2ccccc2)cc1,DHFR,,IC50,,0.31 µM
NC(=O)NS(=O)(=O)c1ccc(N)cc1,DHPS,,IC50,,0.3 µM
Nc1nc(N)c(-c2ccc(Cl)cc2)c(CNc2cccc([N+](=O)[O-])c2)n1,DHFR,,IC50,,17 µM
Nc1ccc(S(=O)(=O)Nc2cnc3ccccc3n2)cc1,DHPS,,IC50,,0.03 µM
Nc1nc(N)c(-c2ccc(Cl)c(Cl)c2)c(COc2ccccc2)n1,DHFR,,IC50,,13.5 µM
COc1c(SC)cc(Cc2cnc(N)nc2N)cc1S(C)=O,DHFR,,IC50,,18 µM
Nc1ccc(S(=O)(=O)Nc2ccccc2O)cc1,DHPS,,IC50,,0.23 µM
Nc1nc(N)c(-c2ccc(Cl)cc2)c(COc2ccc([N+](=O)[O-])cc2)n1,DHFR,,IC50,,85.1 µM
O=[N+]([O-])c1cc(S(=O)(=O)c2ccc(F)c([N+](=O)[O-])c2)ccc1F,DHPS,,IC50,,>10 µM
COc1ncnc(NS(=O)(=O)c2ccc(N)cc2)c1OC,Oxidosqualene cyclase,HPLC,Ki,,149 µM
N=C(N)c1ccc(-c2cc3ccc(C(=N)N)cc3[nH]2)cc1,Topoisomerase I,,IC50,,25–50 µM
CN(Cc1cnc2nc(N)nc(N)c2n1)c1ccc(C(=O)N[C@@H](CCC(=O)N[C@@H](CCC(=O)N[C@@H](CCC(=O)O)C(=O)O)C(=O)O)C(=O)O)cc1,DHFR,,IC50,,0.0002 µM
Cc1cc(NS(=O)(=O)c2ccc(N)cc2)no1,Oxidosqualene cyclase,HPLC,IC50,,440 µM

3 of the rows above, restated:

SMILES	protein	method	endpoint	tested at	result
N=C(N)c1ccc2nc(CCCCc3nc4ccc(C(=N)N)cc4[nH]3)[nH]c2c1	Topoisomerase I		IC50		10–12 µM
Nc1ccc(S(=O)(=O)Nc2ccccc2O)cc1	DHPS		IC50		0.23 µM
Nc1nc(N)c(-c2ccc(Cl)cc2)c(COc2ccc([N+](=O)[O-])cc2)n1	DHFR		IC50		85.1 µM